Test results: PMC6546875, “Efficacy of Antimicrobial Peptide DP7, Designed by Machine-Learning Method, Against Methicillin-Resistant Staphylococcus aureus” (Frontiers in Microbiology, 2019)

System: S. aureus DP7-R
Assay type: cell-based, Staphylococcus aureus
Conditions: DP7-resistant strain obtained from ATCC 25923
Experimental: Subsequently, the bacterial samples were counted at different time points (0, 1, 2, 4, 6, 8, 18, and 24 h).
For every 48 h, we transferred 2% of each culture to new flasks containing fresh medium with a twofold higher DP7 concentration. […] Aliquots from each population were stored in 20% glycerol at -80°C.

## VQLRIRVCVIRK [DP10, synthesized antimicrobial peptide]
  MIC for DP7-R: 256 µg/mL
